Record: PubChem BioAssay AID1224833 (University of Georgia, 2016)
Test: 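Host factors restraining rotavirus as candidate antiviral genes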 (primary screen). Cell system: monkey MA104 kidney cells. Reagents: siRNA pool against human genes, 50 nM. Timing: 48 h knock-down before infection; read 24 h after infection. Treatment: infection with rotavirus strain RV3 two days after transfection; infectious dose for this stage not given. Measured: 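Rotavirus antigen per well by fluorescent immunoassay, normalised to non-targeting control wells on each plate and given as a standard z-score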. Direction: z-score vs non-targeting control: higher = more rotavirus replication than with non-targeting control. Hit rule: In these data the active calls have z-score vs non-targeting control at about -1 or lower, or at about 1 or higher. Meaning of the calls: active = z-score beyond 1 either way; inactive = z-score within 1 of zero.
This is an unselected part of about 12,000 reagents. In the full data, about 5,600 (46%) got an active call. 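Active calls cover z-scores past 1 in both directions, so they include lowered as well as raised rotavirus replication.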 Unmarked entries are inactive. No sequences are given here.

gene | z-score vs non-targeting control
PCDH8 | -0.757
EBP | -1.53 (active)
VAV3 | -2.84 (active)
GADD45G | -2.33 (active)
CPNE6 | 0.439
VPS4A | -1.15 (active)
MICU1 | -0.442
ZCCHC10 | -0.261
BCAS4 | -2.55 (active)
RNASET2 | -0.887
FATE1 | 0.333
CCZ1B | -0.97
NIBAN3 | -0.223
TAGLN | -0.78
PCDHGA1 | 0.119
BTN2A2 | -0.467
GAS6 | -1.69 (active)
SPOPL | -1.81 (active)
MMADHC | -0.169
NAPRT | 1.92 (active)
ANKRD24 | -1.11 (active)
TPRX1 | -0.632
NMRAL1 | 0.714
DNMBP | -0.668
HES3 | -1.72 (active)
RBBP4 | 1.21 (active)
SLC10A4 | 1.36 (active)
OR2AT4 | -0.927
CYLC1 | -2.49 (active)
FNBP1 | -1.03 (active)
ZNF618 | -1.1 (active)
CHIA | -1.89 (active)
GGA2 | -0.694
B3GLCT | -0.392
H2AC21 | -2.03 (active)
IPO4 | -0.38
PCDHA8 | 1.99 (active)
HNRNPK | -0.647
SELENOS | -1.93 (active)
SEPHS1 | -0.579
SPTAN1 | -0.365
LARS2 | -0.756
KRT82 | 1.22 (active)
ZNF622 | 1.3 (active)
DIP2B | -2.52 (active)
